Results of unrelated studies side by side (data: NIAID ChemDB).

All rows: whole-cell or culture tests; agent: Herpes simplex virus 1; method: plaque count; read-out: EC50

An empty or dashed field is not shown.

{"compound": "CC1OP(=O)(OC[C@H]2O[C@@H](n3cc(/C=C/Br)c(=O)[nH]c3=O)C[C@@H]2O)Oc2cccc(Cl)c21", "cell line": "VERO", "strain": "KUPKA (TK+)", "result": "0.22 µg/mL"}
{"compound": "Nc1nc2c(ncn2[C@@H]2C=C[C@H](CO)CC2)c(=O)[nH]1", "result": "0.01–0.1 µM"}
{"compound": "[Br][Sn]([Br])([c]1ccccc1)[c]1ccccc1", "cell line": "HFF", "strain": "F", "result": "0.45 µg/mL"}
{"compound": "CCc1cn([C@@H]2O[C@H](CO)[C@@H](O)[C@@H]2F)c(=O)[nH]c1=O", "cell line": "HEL", "result": "0.22 µM"}
{"compound": "CC(=O)c1cn(C/C=C/C(O)CO)c(=O)[nH]c1=O", "cell line": "VERO", "strain": "F", "result": "100 µM"}
{"compound": "O=c1[nH]c(=O)n([C@@H]2O[C@H](CO)[C@@H](O)[C@@H]2O)cc1I", "cell line": "HEL", "result": "23.5 µM"}
{"compound": "CCCCCCCCc1cc2cn(C/C=C/C(O)CO)c(=O)nc2o1", "cell line": "VERO", "strain": "F", "result": ">10 µM"}
{"compound": "COC(=O)[C@H](C)NP(=O)(OC[C@H]1C/C1=C/n1cnc2c(OC)nc(N)nc21)Oc1ccccc1", "cell line": "HFF", "result": "1.1 µM"}
{"compound": "CC(=O)CCCC(C)(C)C(=O)CC/C(C)=C/CCC1(C)CCC([C@H](C)C(=O)O)OO1", "cell line": "VERO", "result": "7.5 µg/mL"}
{"compound": "Cc1cccc2c1OP(=O)(OC[C@H]1O[C@@H](n3cc(/C=C/Br)c(=O)[nH]c3=O)C[C@@H]1OC(=O)[C@H]1CCCN1)OC2", "cell line": "VERO", "strain": "KUPKA (TK+)", "result": "0.23 µg/mL"}
{"compound": "CC#Cc1cn([C@H]2C[C@H](O)[C@@H](CO)O2)c(=O)[nH]c1=O", "cell line": "HEL", "result": "76 µM"}
{"compound": "COC(=O)[C@H](C)NP(=O)(OCC1C/C1=C\\n1cnc2c(N)ncnc21)Oc1ccccc1", "cell line": "VERO", "result": ">10 µM"}
{"compound": "C[C@H](N)C(=O)O[C@H]1C[C@H](n2cc(/C=C/Br)c(=O)[nH]c2=O)O[C@@H]1COP1(=O)OCc2ccccc2O1", "cell line": "VERO", "strain": "B2006 (TK-)", "result": ">128 µg/mL"}
{"compound": "Cc1cn([C@@H]2O[C@H](CO)[C@@H](O)[C@@H]2F)c(=O)[nH]c1=O", "cell line": "HEL", "result": "0.081 µM"}
{"compound": "Nc1nc2c(ncn2[C@H]2C[C@@]23C[C@H]3CO)c(=O)[nH]1", "cell line": "VERO", "result": ">100 µM"}
{"compound": "COc1cc(OC)c(N2C(=O)C=C(c3ccccc3)C2=O)c(OC)c1", "cell line": "VERO", "strain": "KOS", "result": "3.9 µg/mL"}
{"compound": "Nc1nc2c(ncn2COCCO)c(=O)[nH]1", "cell line": "VERO", "strain": "1F", "result": "2.1 µg/mL"}
{"compound": "O=C(O)P(=O)(O)O", "cell line": "SIRC", "strain": "V8523", "result": "<500 µM"}
{"compound": "CC(=O)O[C@H]1CC2C[C@@H](OC(=O)c3ccccc3)[C@H]3[C@](C)(C(=O)O)CCC[C@]3(C)[C@]23CC[C@]1(C)C3", "cell line": "HeLa", "strain": "F", "result": "9.8 µM"}
{"compound": "CCCCCC[CH2][Sn]([Cl])([Cl])[CH2]CCCCCC", "cell line": "HFF", "strain": "F", "result": "15 µg/mL"}
{"compound": "N=C(N)c1cn([C@H]2C[C@H](O)[C@@H](CO)O2)c2ncnc(N)c12", "cell line": "VERO", "strain": "KOS", "result": "6 µM"}
{"compound": "CC(C)(C)c1cccc2c1OP(=O)(OC[C@H]1O[C@@H](n3cc(/C=C/Br)c(=O)[nH]c3=O)C[C@@H]1O)OC2", "cell line": "VERO", "strain": "B2006 (TK-)", "result": ">128 µg/mL"}
{"compound": "C[C@@]12CC[C@]3(C1)C(C[C@@H](OC(=O)c1ccccc1)[C@H]1[C@](C)(C(=O)O)CCC[C@@]13C)C[C@@H]2O", "cell line": "HeLa", "strain": "F", "result": "29.5 µM"}
{"compound": "N=C(N)c1cn([C@@H]2O[C@H](CO)[C@@H](O)[C@@H]2O)c2ncnc(N)c12", "cell line": "VERO", "strain": "KOS", "result": ">100 µM"}
{"compound": "O=c1[nH]c(=O)n([C@@H]2O[C@H](CO)[C@@H](O)[C@H]2O)cc1/C=C/Br", "cell line": "HEL", "result": ">917 µM"}
{"compound": "NC(=O)c1cn([C@H]2C[C@H](O)[C@@H](CO)O2)c2ncnc(N)c12", "cell line": "BSC-1", "strain": "S-148", "result": "37 µM"}
{"compound": "O=C(O)CP(=O)(O)O", "cell line": "SIRC", "strain": "11-Aug", "result": "<500 µM"}
{"compound": "Nc1nc(NC2CC2)c2ncn(C=C3CC3CO)c2n1", "cell line": "VERO", "result": "31 µM"}
{"compound": "Nc1nc2c(ncn2[C@H]2C[C@]23C[C@@H]3CO)c(=O)[nH]1", "cell line": "VERO", "result": ">50 µM"}
{"compound": "O=C(NCCc1c[nH]c2ccccc12)C1=Cc2ccncc2CC1", "cell line": "HFF", "strain": "McKrae", "result": "2.3 µM"}
{"compound": "Cc1cccc2c1OP(=O)(OC[C@H]1O[C@@H](n3cc(/C=C/Br)c(=O)[nH]c3=O)C[C@@H]1O)OC2", "cell line": "VERO", "strain": "B2006 (TK-)", "result": ">128 µg/mL"}
{"compound": "COC(=O)[C@H](C)NP(=O)(OC[C@@H]1C[C@]12C[C@@H]2n1cnc2c(N)ncnc21)Oc1ccccc1", "cell line": "VERO", "result": "20 µM"}
{"compound": "C[C@@]12CC[C@]3(C1)C(CC(=O)[C@H]1[C@](C)(C(=O)O)CCC[C@@]13C)CC2=O", "cell line": "HeLa", "strain": "F", "result": "22.6 µM"}
{"compound": "CC(=O)O[C@H]1C[C@H](n2cc(/C=C/Br)c(=O)[nH]c2=O)O[C@@H]1COP1(=O)OCc2cccc(C)c2O1", "cell line": "VERO", "strain": "KUPKA (TK+)", "result": "0.8 µg/mL"}
{"compound": "COC(=O)[C@H](C)NP(=O)(OC[C@@H]1C[C@]12C[C@@H]2n1cnc2c(N)ncnc21)Oc1ccccc1", "cell line": "HFF", "result": "6.1 µM"}
{"compound": "CCCCCCC[CH2][Sn]([Cl])([Cl])[CH2]CCCCCCC", "cell line": "HFF", "strain": "F", "result": "48 µg/mL"}
{"compound": "Nc1nc2c(ncn2[C@H]2C=C[C@@H](CO)CC2)c(=O)[nH]1", "result": "0.1–1 µM"}
{"compound": "CCCCCc1ccc(C#Cc2cn(C/C=C/C(O)CO)c(=O)[nH]c2=O)cc1", "cell line": "VERO", "strain": "F", "result": "8.5 µM"}
{"compound": "[Cl][Sn]([Cl])([Cl])[c]1ccccc1", "cell line": "HFF", "strain": "F", "result": "0.6 µg/mL"}
{"compound": "C[C@@]1(CO)[C@H](O)CC[C@@]2(C)[C@H]1CC[C@H]1C[C@@H]3C[C@@]12CC[C@]3(O)CO", "cell line": "VERO", "strain": "KOS", "result": "3 µg/mL"}
{"compound": "CCCCCc1ccc(-c2cc3cn(COCCO)c(=O)nc3o2)cc1", "cell line": "VERO", "strain": "F", "result": ">100 µM"}
{"compound": "N#Cc1cn([C@@H]2O[C@H](CO)[C@@H](O)[C@@H]2O)c2ncnc(N)c12", "cell line": "BSC-1", "strain": "S-148", "result": "38 µM"}
{"compound": "CCCC[CH2][Sn]([Cl])([Cl])[CH2]CCCC", "cell line": "HFF", "strain": "F", "result": "<1.4 µg/mL"}
{"compound": "Cc1cccc2c1OP(=O)(OC[C@H]1O[C@@H](n3cc(/C=C/Br)c(=O)[nH]c3=O)C[C@@H]1OC(=O)[C@@H](N)C(C)C)OC2", "cell line": "VERO", "strain": "B2006 (TK-)", "result": ">128 µg/mL"}
{"compound": "O=c1[nH]c(=O)n([C@H]2C[C@H](O)[C@@H](CO)O2)cc1/C=C/Br", "cell line": "VERO", "result": "0.06–0.22 µM"}
{"compound": "CC/C=C\\C/C=C\\C/C=C\\C/C=C\\C/C=C\\CCCC(=O)OC(CO[C@H]1O[C@H](CS(=O)(=O)O)[C@@H](O)[C@H](O)[C@H]1O)OC(=O)CCCCCCCCCCCCCCC", "cell line": "VERO", "result": "9.1 µg/mL"}
{"compound": "Nc1nc2c(ncn2C=C2CC2CO)c(=O)[nH]1", "result": "10–100 µM"}
{"compound": "COC(=O)[C@H](C)NP(=O)(OC[C@H]1C/C1=C/n1cnc2c(N)nc(N)nc21)Oc1ccccc1", "cell line": "HFF", "result": "5.5 µM"}
{"compound": "O=C(Oc1ccc(Cl)c(Cl)c1)P(=O)(O)O", "cell line": "VERO", "strain": "C42", "result": ">500 µM"}
{"compound": "N#Cc1c(N)n[nH]c1-c1ccc(F)cc1", "cell line": "VERO", "strain": "KOS", "result": "3 µg/mL"}
{"compound": "Nc1nc2c(ncn2[C@H]2C[C@@]23C[C@@H]3CO)c(=O)[nH]1", "cell line": "VERO", "result": ">50 µM"}
{"compound": "O=c1[nH]c(=O)n([C@@H]2O[C@H](CO)[C@@H](O)[C@@H]2O)cc1C=C(Br)Br", "cell line": "HEL", "result": "704 µM"}
{"compound": "CC(C)(C)C(=O)OCOP(=O)(COCCn1cnc2c(N)ncnc21)OCOC(=O)C(C)(C)C", "cell line": "VERO", "strain": "KOS", "result": "1.7 µM"}
{"compound": "Cc1cccc2c1OP(=O)(OC[C@H]1O[C@@H](n3cc(/C=C/Br)c(=O)[nH]c3=O)C[C@@H]1OC(=O)[C@@H](N)CC(C)C)OC2", "cell line": "VERO", "strain": "B2006 (TK-)", "result": ">128 µg/mL"}
{"compound": "C[CH](C)[Sn]([Cl])([Cl])[CH](C)C", "cell line": "HFF", "strain": "F", "result": "2.4 µg/mL"}

Again, the opening 4 rows:

compound | cell line | strain | result
CC1OP(=O)(OC[C@H]2O[C@@H](n3cc(/C=C/Br)c(=O)[nH]c3=O)C[C@@H]2O)Oc2cccc(Cl)c21 | VERO | KUPKA (TK+) | 0.22 µg/mL
Nc1nc2c(ncn2[C@@H]2C=C[C@H](CO)CC2)c(=O)[nH]1 |  |  | 0.01–0.1 µM
[Br][Sn]([Br])([c]1ccccc1)[c]1ccccc1 | HFF | F | 0.45 µg/mL
CCc1cn([C@@H]2O[C@H](CO)[C@@H](O)[C@@H]2F)c(=O)[nH]c1=O | HEL |  | 0.22 µM

Lines come from different laboratories, so protocols vary. a–b is a range or a potency band. ECn: concentration that inhibits the pathogen or its effect by n%.